Measured values from several laboratories, pooled; numbers as filed in NIAID ChemDB.

All rows: cytotoxicity tests; cell line: HEL; endpoint: CC50

CCn: concentration that lowers growth or viability of the cells by n%. Conditions beyond the fields shown may differ between rows.

SMILES	result
COC(=O)c1cc(O)c(O)c(O)c1	63 µg/mL
Nc1ncnc2c1ncn2CCOCP(=O)(O)O	100 µg/mL
Nc1ncnc2c1ncn2[C@@H]1C=C[C@@H](O)[C@H]1O	86 µg/mL
O=C(O)/C=C/c1ccc(O)c(O)c1	95 µg/mL
Nc1ncnc2c1ncn2C[C@H]1COP(=O)(O)CO1	40 µg/mL
Cc1cn([C@@H]2O[C@H](CO)[C@@H](O)[C@@H]2F)c(=O)[nH]c1=O	1.5 µM
COc1cccc(O)c1O	93 µg/mL
Nc1ncnc2c1ncn2[C@@H]1C[C@H](c2ccccc2)[C@@H](O)[C@H]1O	150 µg/mL
Nc1ccn(C[C@@H](CO)OCP(=O)(O)O)c(=O)n1	50 µg/mL
O=c1[nH]c(=O)n([C@@H]2O[C@H](CO)[C@@H](O)[C@@H]2O)cc1C=C(Br)Br	>376 µM
CC[C@H]1C[C@@H](n2cnc3c(N)ncnc32)[C@H](O)[C@@H]1O	30 µg/mL
Cc1cn([C@@H]2O[C@H](CO)[C@@H](O)[C@@H]2O)c(=O)[nH]c1=O	58 µM
Nc1ncc2ncn(CCOCP(=O)(O)O)c2n1	>400 µg/mL
O=c1[nH]c(=O)n([C@@H]2O[C@H](CO)[C@@H](O)[C@@H]2O)cc1/C=C/I	>404 µM
Nc1ncnc2c1ncn2[C@@H]1C[C@H](CO)[C@@H](O)[C@H]1O	1.25 µg/mL
NCC(O)c1ccc(O)c(O)c1	≥200 µg/mL
CCc1cn([C@@H]2O[C@H](CO)[C@@H](O)[C@@H]2F)c(=O)[nH]c1=O	>584 µM
CC(C)NCC(O)c1ccc(O)c(O)c1	≥200 µg/mL
C#Cc1cn([C@H]2C[C@H](O)[C@@H](CO)O2)c(=O)[nH]c1=O	8.7 µM

A second listing of 2 rows from above:

SMILES | result
O=c1[nH]c(=O)n([C@@H]2O[C@H](CO)[C@@H](O)[C@@H]2O)cc1C=C(Br)Br | >376 µM
Nc1ncc2ncn(CCOCP(=O)(O)O)c2n1 | >400 µg/mL